The test system of assay [1] is genotype 1 HCV (serum HCV RNA).
The test system of the next assay is S405T mutant BVDV. The format is cell-based, bovine viral diarrhea virus. Particulars: de novo-infected MDBK.

The results in this text go back to patent publication US7582618B2 (priority 2002, dated 2009).

Where a name gives a salt, the structure may show the parent alone. Read-outs that look alike come from different tables or passages of the source.

Consider `CC(C)C(N)C(=O)OC1[C@@H](CO)O[C@@H](n2ccc(N)nc2=O)C1(C)O` (stereo in doubt) [val-mCyd, 2-Amino-3-methyl-butyric acid 5-(4-amino-2-oxo-2H-pyrimidine-1-yl)-4-hydroxy-2 hydroxy-methyl-4-methyl-tetrahydro-furan-3-yl ester (dihydrochloride salt)], for which the “viral load drop in response to therapy” value in assay [1] (animal 497, site 2 (largest drop)) was 1.514 log10; in assay [1] (animal 501, site 1 (smallest drop)), 0.436 log10.

In the case of interferon alpha 2b, in the assay with S405T mutant BVDV, the “sensitivity of S405T mutant relative to wild-type” value is reported as approximately 40 fold.
